Pooled drug test results. Numbers come from NIAID ChemDB, via PubChem.

Common to all: tests in culture

Neighbouring rows are from separate reports. MIC50, MIC90 and the like: level of inhibition, or share of isolates inhibited. An empty or dashed field is not shown. a–b is a range or a potency band. ECn is the concentration giving n% inhibition of infection, replication or growth. Inhibition is in % at the dose shown (toxicity tests: loss of growth or viability).

| structure | organism | strain | cell line | method | setting | endpoint | dose | value |
|---|---|---|---|---|---|---|---|---|
| Cc1[nH]nc2c1C(=O)c1c(O)ccc(O)c1C2=O | Cryptosporidium parvum | - | - | - | - | inhibition | 10 µM | <10% |
| Cc1ccc2oc(=S)n(-c3ccc(Cl)c(Cl)c3)c(=S)c2c1 | Mycobacterium kansasii | 6509/96 | - | - | 14 d | MIC | - | 8 µM |
| CS[C@H]1C[C@@H](n2cnc3cc4cncnc4cc32)[C@H](O)[C@@H]1O | Measles virus | - | CV-1 | neutral red | - | EC50 | - | 100 µg/mL |
| OC[C@H]1O[C@@H](n2c(Cl)nc3cc(Cl)c(Cl)cc32)[C@H](O)[C@@H]1O | Human cytomegalovirus | R56 | - | virus yield | - | EC95 | - | 5.2 µM |
| CCC(CC)[C@H](NC(C)=O)[C@@H]1[C@H](O)[C@@H](C(=O)O)C[C@H]1N=C(N)N | Influenza A virus | H1N1 A/TEXAS/36/91 | MDCK | - | - | EC50 | - | 0.09 µM |
| O=C1c2ccccc2C(=O)c2[nH]ncc21 | Cryptosporidium parvum | - | - | - | - | inhibition | 50 µM | <10% |
| C1=C[C@@H](c2ncc(-c3ccc(-c4ccc(-c5cnc([C@@H]6C=CCN6)[nH]5)cc4)cc3)[nH]2)NC1 | Hepatitis C virus | 1b | ET | luciferase | - | EC50 | - | 1.7 µM |
| Cn1ncc2c1C(=O)c1cccc(O)c1C2=O | Cryptosporidium parvum | - | - | - | - | inhibition | 10 µM | 32% |
| Cn1cc(C(=O)NCc2ccc(Cl)cc2)c(=O)c2cc(CN3CCOCC3)ccc21 | Varicella zoster virus | DI varicella isolate | HFF | plaque count | - | inhibition | 1.4 µM | 90% |
| C=Cc1cn([C@@H]2O[C@H](CO)[C@@H](O)[C@@H]2O)c(=O)[nH]c1=O | Varicella zoster virus | OKA | HELF | plaque count | - | inhibition | 0.01 µg/mL | 0% |
| O=C1c2cccc(O)c2C(=O)c2cn[nH]c21 | Cryptosporidium parvum | - | - | - | - | inhibition | 10 µM | <10% |
| CCOC(=O)/C=C/[C@H](C[C@@H]1CCNC1=O)NC(=O)[C@@H](CC(=O)[C@@H](NC(=O)c1cc(C)on1)C(C)C)Cc1ccc(F)cc1 | Rhinovirus | Isolate 36 | OHIO HELA-I | cytopathic effect / visual reading | - | EC50 | - | 0.02 µg/mL |
| CCCC(CCC)C(NC(C)=O)C1CC(C(=O)O)CC1N=C(N)N | Influenza A virus | H1N1 A/Bayern/07/95 | MDCK | - | - | EC50 | - | 0.72 µM |
| O=C(NCc1ccccc1)c1c2n(c(=O)n1-c1ccc(OC3CC(F)(F)C3)cc1)CCN(C(=O)c1ccc(Br)c(Cl)c1)C2 | Hepatitis B virus | - | HepG2.117 | PCR | - | EC50 | - | 0.5–5 µM |
| CC(N)C12CC3CC(CC(C3)C1)C2 | Influenza A virus | Influenza A H3N2 isolate 88 | MDCK | ELISA | - | EC50 | - | 4.15 µg/mL |
| CCC(CC)[C@H](NC(C)=O)[C@@H]1[C@H](O)[C@@H](C(=O)O)C[C@H]1N=C(N)N | Influenza B virus | HONG KONG/5/72 | MDCK | plaque count | - | EC50 | - | 0.041 µM |
| O=c1oc2ccc(F)cc2c(=S)n1-c1ccc(Cl)c(Cl)c1 | Mycobacterium kansasii | 6509/96 | - | - | 21 d | MIC | - | 2 µM |
| Cc1ccc(-n2c(C(=O)NCc3ccccc3)c3n(c2=O)CCN(C(=O)c2ccc(Cl)c(Cl)c2)C3)cc1 | Hepatitis B virus | - | HepG2.117 | PCR | - | EC50 | - | 0.5–5 µM |
| Nc1ncnc2c1ncn2[C@@H]1C[C@H](N)[C@@H](O)[C@H]1O | Measles virus | BIL | CV-1 | cytopathic effect | - | EC50 | - | 100 µg/mL |
| CC(=O)Oc1cccc2c1C(=O)c1c(cnn1C)C2=O | Cryptosporidium parvum | - | - | - | - | inhibition | 10 µM | 38% |
| Fc1ccc(-n2c(=S)oc3ccc(Br)cc3c2=S)cc1 | Mycobacterium kansasii | 6509/96 | - | - | 14 d | MIC | - | 8 µM |
| CCC(C)CC(C)CCCCCCCCC(=O)N[C@H]1C[C@@H](O)[C@H](NCCN)NC(=O)[C@@H]2[C@@H](O)CCN2C(=O)[C@H]([C@H](O)CCN)NC(=O)[C@H]([C@H](O)[C@@H](O)c2ccc(O)cc2)NC(=O)[C@@H]2C[C@@H](O)CN2C(=O)[C@H]([C@@H](C)O)NC1=O | Cryptococcus gattii | CBS 11807 | - | broth dilution | - | MIC | - | 16 µg/mL |
| C=CCc1ccc(O)c(OC)c1 | Candida albicans | 3070 | - | turbidity | - | MIC90 | - | 495 µg/mL |
| Nc1ncnc2c1ncn2C=C1CC1CO | Human cytomegalovirus | VR6200 (ganciclovir-susceptible) | - | plaque count | - | EC50 | - | 1.6 µM |
| Nc1ncnc2c1ncn2[C@H]1C[C@H](O)[C@H](O)[C@@H]1O | Measles virus | - | CV-1 | virus yield | - | EC50 | - | 0.2 µg/mL |
| CN[C@H]1CC[C@@H](c2ccc(Cl)c(Cl)c2)c2ccccc21 | Cryptococcus neoformans | 92C | - | broth dilution | - | MFC | - | 10 µg/mL |
| C[C@@H](NC(=O)c1c2n(c(=O)n1C1CC1)CCN(C(=O)c1ccc(Br)c(Cl)c1)C2)c1ccccc1 | Hepatitis B virus | - | HepG2.117 | PCR | - | EC50 | - | 0.5–5 µM |
| C[C@@H](c1ncncc1F)[C@](O)(Cn1cncn1)c1ccc(F)cc1F | Cryptococcus gattii | VG IIc | - | broth dilution | - | MIC50 | - | 0.25 µg/mL |
| O=c1oc2ccc(Cl)cc2c(=S)n1-c1ccc(F)cc1 | Mycobacterium kansasii | My 235/80 | - | - | 14 d | MIC | - | 16 µM |
| O=c1[nH]c(=O)n([C@H]2C[C@H](O)[C@@H](CO)O2)cc1/C=C/Br | Varicella zoster virus | HIRAI | HELF | plaque count | - | inhibition | 0.1 µg/mL | 100% |
| O=C(NCc1ccc(Cl)cc1)c1c[nH]c2ccc(CCCO)cc2c1=O | Human cytomegalovirus | ADI | - | plaque count | - | EC50 | - | 0.95 µM |
| CC(C)Nc1nc2cc(Cl)c(Cl)cc2n1[C@H]1O[C@@H](CO)[C@H](O)[C@@H]1O | Human cytomegalovirus | C9207 | MRC-5 | plaque count | - | EC50 | - | 0.44 µM |
| Nc1ncnc2c1ncn2[C@@H]1C=C[C@@H](O)[C@H]1O | Measles virus | Chicago | CV-1 | cytopathic effect | - | EC50 | - | 1 µg/mL |
| C/C=C/C/C=C/CCC(=O)[C@H]1O[C@H]1C(N)=O | Escherichia coli | UB1005/PEMR2.6 | - | - | - | MIC | - | 20 µg/mL |
| Cc1cn([C@@H]2O[C@H](CO)[C@@H](O)[C@@H]2F)c(=O)nc1N | Varicella zoster virus | OKA | HELF | plaque count | - | inhibition | 0.1 µg/mL | 100% |
| CCCCCCCCOC(=O)[C@]1(O)C[C@@H](O)[C@@H](O)[C@H](OC(=O)/C=C/c2ccc(O)c(O)c2)C1 | Aspergillus ochraceus | CB 108.08 | - | absorbance | - | MIC50 | - | 1100 µM |
| CC(=O)N[C@H]1[C@H]([C@H](O)[C@H](O)CO)OC(C(=O)O)=C[C@@H]1N=C(N)N | Influenza A virus | H1N1 A/Beijing/252/95 | MDCK | - | - | EC50 | - | 2.6 µM |
| Nc1nc(=O)n([C@@H]2O[C@H](CO)[C@@H](O)[C@@H]2F)cc1I | Varicella zoster virus | Ohtomo | HELF | plaque count | - | inhibition | 0.1 µg/mL | 100% |
| CC(C)Nc1nc2cc(Cl)c(Cl)cc2n1[C@@H]1O[C@H](CO)[C@@H](O)[C@H]1O | Human cytomegalovirus | AD169 | MRC-5 | virus yield | - | EC50 | - | 1.3 µM |
| NC(=O)COc1ccc(-n2c(C(=O)NCc3ccccc3)c3n(c2=O)CCN(C(=O)c2ccc(Br)c(Cl)c2)C3)cc1 | Hepatitis B virus | - | HepG2.117 | PCR | - | EC50 | - | 0.5–5 µM |
| O=C(O)P(=O)(O)O | Cytomegalovirus | AD169 | HFF | hybridisation | - | inhibition | 800 µM | 99.8% |
| Nc1nc2c(ncn2COCCO)c(=O)[nH]1 | Varicella zoster virus | OKA | HELF | plaque count | - | inhibition | 10 µg/mL | 100% |
| Nc1ncnc2c1ncn2[C@@H]1CC[C@@H](O)[C@H]1O | Measles virus | - | CV-1 | virus yield | - | EC50 | - | 0.4 µg/mL |